From patent publication US20160024159A1, “Potent and selective inhibitors of Nav1.7” (published 2016)
Changes are numbered by the printed parent chain. Where “and” joins values, the source holds several entries; their conditions need not be identical. Equal entries are not always repeated. Where two headings read alike, the source gives them in different places.

B1: CyA-[Nle6,Lys(Pra)14,Glu28]JzTx-V(1-29) (peptide)
peptide: AYCQKWLWTCDSKRKCCEGLRCKLWCRKEI
modifications: not checked
B2: CyA-[Nle6,Pra17,Glu28]JzTx-V(1-29) (peptide)
peptide: B1 peptide with K15A, E18G
modifications: not checked
B3: Pra-[Nle6;Glu11,28]JzTx-V(1-29) (peptide)
peptide: B1 peptide with A1G, S12E, K15A
modifications: not checked
B4: CyA-[Nle6,Atz(NPEG10)17,Glu28]JzTx-V(1-29) (peptide)
peptide: B1 peptide with K15A, E18A
modifications: not checked
B5: Pra-[Nle6;Glu12;Lys17]JzTx-V(1-29) (peptide)
peptide: GYCQKWLWTCDSERACCKGLRCKLWCRKII
modifications: not checked
B6: Pra-[Nle6;Glu12,28;Lys17]JzTx-V(1-29) (peptide)
peptide: B5 peptide with I29E
modifications: not checked
B7: [Nle6;Pra11;Glu28]JzTx-V(1-29) (peptide)
peptide: YCQKWLWTCDGKRACCEGLRCKLWCRKEI
modifications: not checked
B8: Glu-[Pra1;Nle6;Glu14,28]JzTx-V(1-29) (peptide)
peptide: B1 peptide with A1E, Y2G, K15E
modifications: not checked
B9: Pra-[Nle6;Chg23;Glu28]JzTx-V(1-29) (peptide)
peptide: B1 peptide with A1G, K15A, L24G
modifications: not checked
B10: CyA-[Nle6;Pra11;Glu28]JzTx-V(1-29) (peptide)
peptide: B1 peptide with S12G, K15A
modifications: not checked
B11: Homodimeric Peptide No. 8 (peptide)
peptide: B1 peptide with K15A, E18A
modifications: not checked
B12: Homodimeric Peptide No. 9 (peptide)
peptide: KAYCQKWLWTCDSKRKCCEGLRCKLWCRKEI
modifications: not checked
B13: [Phe5;Glu20;Tyr28]JzTx-V(1-29) (peptide)
peptide: YCQKFMWTCDSKRACCEGLECKLWCRKYI
modifications: not checked
B14: [Tyr5,28;Glu20]JzTx-V(1-29) (peptide)
peptide: YCQKYMWTCDSKRACCEGLECKLWCRKYI
modifications: not checked
B15: [Val5;Glu20;Tyr28]JzTx-V(1-29) (peptide)
peptide: YCQKVMWTCDSKRACCEGLECKLWCRKYI
modifications: not checked
B16: [Leu5;Glu20;Tyr28]JzTx-V(1-29) (peptide)
peptide: YCQKLMWTCDSKRACCEGLECKLWCRKYI
modifications: not checked
B17: [Nva5;Glu20;Tyr28]JzTx-V(1-29) (peptide)
peptide: YCQKVMWTCDSKRACCEGLECKLWCRKYI
modifications: not checked
B18: [Lys5;Glu20;Tyr28]JzTx-V(1-29) (peptide)
peptide: YCQKKMWTCDSKRACCEGLECKLWCRKYI
modifications: not checked
B19: [Asn5;Glu20;Tyr28]JzTx-V(1-29) (peptide)
peptide: YCQKNMWTCDSKRACCEGLECKLWCRKYI
modifications: not checked
B20: [Glu5,20;Tyr28]JzTx-V(1-29) (peptide)
peptide: YCQKEMWTCDSKRACCEGLECKLWCRKYI
modifications: not checked
B21: [Lys7;Glu20;Tyr28]JzTx-V(1-29) (peptide)
peptide: YCQKWMKTCDSKRACCEGLECKLWCRKYI
modifications: not checked
B22: [Asn7;Glu20;Tyr28]JzTx-V(1-29) (peptide)
peptide: YCQKWMNTCDSKRACCEGLECKLWCRKYI
modifications: not checked
B23: [Ser7;Glu20;Tyr28]JzTx-V(1-29) (peptide)
peptide: YCQKWMSTCDSKRACCEGLECKLWCRKYI
modifications: not checked
B24: [Glu7,20;Tyr28]JzTx-V(1-29) (peptide)
peptide: YCQKWMETCDSKRACCEGLECKLWCRKYI
modifications: not checked
B25: [Nle6;Glu20]JzTx-V(1-29) (peptide)
peptide: YCQKWLWTCDSKRACCEGLECKLWCRKII
modifications: not checked
B26: [Atz(NPEG10)17;Glu20]JzTx-V(1-29) (peptide)
peptide: YCQKWMWTCDSKRACCAGLECKLWCRKII
modifications: not checked
B27: [Nle6;Atz(NPEG10)22]JzTx-V(1-29) (peptide)
peptide: YCQKWLWTCDSKRACCEGLRCALWCRKII
modifications: not checked
B28: [Nle6;Atz(NPEG10)23]JzTx-V(1-29) (peptide)
peptide: YCQKWLWTCDSKRACCEGLRCKAWCRKII
modifications: not checked
B29: [Nle6,Pra14]JzTx-V(1-29) (peptide)
peptide: YCQKWLWTCDSKRGCCEGLRCKLWCRKII
modifications: not checked
B30: [Ala1]JzTx-V(1-29) (peptide)
peptide: ACQKWMWTCDSKRACCEGLRCKLWCRKII
modifications: not checked
B31: [1-Nal1]JzTx-V(1-29) (peptide)
peptide: ACQKWMWTCDSKRACCEGLRCKLWCRKII
modifications: not checked

How the values were obtained:
Assay in all cases: cell-based or functional assay
[1] = biological target: human Nav1.6 voltage-gated sodium channel (human), Q9UQD0
[2] = biological target: T1, human Nav1.7 voltage-gated sodium channel (human), Q15858
[3] = biological target: T1, human Nav1.7 voltage-gated sodium …; remark: listed apart in the source
[4] = biological target: mouse Nav1.4 voltage-gated sodium channel (mouse), Q9ER60
[5] = biological target: mouse Nav1.7 voltage-gated sodium channel (mouse), Q62205
[6] = biological target: rat Nav1.7 voltage-gated sodium channel (rat), O08562
[7] = biological target: human voltage-gated sodium channel Nav1.3 (human), Q9NY46
[8] = biological target: human voltage-gated sodium channel Nav1.4 (human), P35499
[9] = biological target: human voltage-gated sodium channel Nav1.5 (human), Q14524
[10] = biological target: human voltage-gated sodium channel Nav1.7 (human), Q15858

Row | Binder | PX hNav1.7 Tonic IC50 [3] [nM] | PX mNav1.7 Tonic IC50 [5] [nM] | PX rNav1.7 Tonic IC50 [6] [nM] | mNav1.7/hNav1.7 [5] | rNav1.7/hNav1.7 [6] | IC50, IonWorks Quattro electrophysiology [7] [µM] | IC50, IonWorks Quattro electrophysiology [8] [µM] | IC50, IonWorks Quattro electrophysiology [9] | IC50, IonWorks Quattro electrophysiology [10] | also measured
1 | B1 | 1.59 | 9.79 | 2.73 |  |  |  |  |  |  | PX hNav1.6 Tonic IC50 [1]: 250 nM; PX hNav1.7 Tonic IC50 [2]: 1.59 nM; PX mNav1.4 Tonic IC50 [4]: 62.8 nM
2 | B2 | 0.779 | 4.8 | 1.41 | 6.16 | 1.81 |  |  |  |  | PX hNav1.6 Tonic IC50 [1]: 73.2 nM; PX hNav1.7 Tonic IC50 [2]: 0.779 nM; PX mNav1.4 Tonic IC50 [4]: 32.2 nM; mNav1.4/mNav1.7 [4]: 6.7
3 | B3 | 1.58 | 16.7 | 1.5 | 10.6 | 0.95 |  |  |  |  | PX hNav1.6 Tonic IC50 [1]: 1160 nM; PX hNav1.7 Tonic IC50 [2]: 1.58 nM; PX mNav1.4 Tonic IC50 [4]: 565 nM; mNav1.4/mNav1.7 [4]: 34
4 | B4 | 11.7 | 26.1 | 5.45 | 2.23 | 0.46 |  |  |  |  | 
5 | B5 | 1.87 | 1.27 | 0.653 | 0.68 | 0.35 |  |  |  |  | PX mNav1.4 Tonic IC50 [4]: 2.77 nM; mNav1.4/mNav1.7 [4]: 2.2
6 | B6 | 8.76 | 4.4 | 2.01 | 0.5 | 0.23 |  |  |  |  | PX mNav1.4 Tonic IC50 [4]: 63 nM; mNav1.4/mNav1.7 [4]: 14
7 | B7 | 0.473 | 3.69 | 3.83 | 7.81 | 8.1 |  |  |  |  | 
8 | B8 | 0.563 | 16.1 | 3.34 | 28.6 | 5.94 |  |  |  |  | 
9 | B9 | 0.489 | 0.884 | 3.27 | 1.81 | 6.68 |  |  |  |  | 
10 | B10 | 0.193 | 4.04 | 2.24 | 20.9 | 11.6 |  |  |  |  | 
11 | B11 | 0.679 | 0.593 | 2.1 | 0.87 | 3.09 |  |  |  |  | Nav1.7 PX IC50 [2]: 0.679 nM
12 | B12 | 1.32 | 5.32 | 3.6 |  |  |  |  |  |  | Nav1.7 PX IC50 [2]: 1.32 nM
13 | B13 |  |  |  |  |  | > 5 | > 5 | > 5 µM | 0.16 µM and 0.23 µM | 
14 | B14 |  |  |  |  |  | > 5 | > 5 | > 5 µM | 0.91 µM and 2.5 µM | 
15 | B15 |  |  |  |  |  | > 5 | > 5 | > 5 µM | 3.8 µM | 
16 | B16 |  |  |  |  |  | > 5 | > 5 | > 5 µM | > 5 µM | 

Row | Binder | PX hNav1.7 Tonic IC50 [3] [nM] | PX mNav1.7 Tonic IC50 [5] [nM] | PX rNav1.7 Tonic IC50 [6] [nM] | mNav1.7/hNav1.7 [5] | rNav1.7/hNav1.7 [6] | IC50, IonWorks Quattro electrophysiology [7] [µM] | IC50, IonWorks Quattro electrophysiology [8] [µM] | IC50, IonWorks Quattro electrophysiology [9] | IC50, IonWorks Quattro electrophysiology [10] | also measured
17 | B17 |  |  |  |  |  | > 5 | > 5 | > 5 µM | 3.3 µM | 
18 | B18 |  |  |  |  |  | > 5 | > 5 | > 5 µM | > 5 µM | 
19 | B19 |  |  |  |  |  | > 5 | > 5 | > 5 µM | 4.2 µM and > 5 µM | 
20 | B20 |  |  |  |  |  | > 7 | > 7 | > 7 µM | > 7 µM | 
21 | B21 |  |  |  |  |  | > 7 | > 7 | > 7 µM | 2.7 µM | 
22 | B22 |  |  |  |  |  | > 7 | 6.1 | > 7 µM | 5 µM | Nav1.4/Nav1.7 (ratio of IC50) [8]: 1 fold
23 | B23 |  |  |  |  |  | > 7 | > 7 | > 7 µM and 5.4 µM | 4.7 µM and 6.6 µM | 
24 | B24 |  |  |  |  |  | > 7 | > 7 | > 7 µM | > 7 µM | 
25 | B25 |  |  |  |  |  | 4.1 | > 5 | > 5 µM | 0.19 µM | 
26 | B26 |  |  |  |  |  | > 5 | > 5 | 15.1 µM | 0.18 µM | Nav1.4/Nav1.7 (ratio of IC50) [8]: 28 fold
27 | B27 |  |  |  |  |  | > 7 | > 7 | > 7 µM | > 7 µM | 
28 | B28 |  |  |  |  |  | 5.6 | > 7 | > 7 µM | 4.8 µM | 
29 | B29 |  |  |  |  |  | 0.06 | 0.09 | > 7 µM | 0.07 µM | Nav1.4/Nav1.7 (ratio of IC50) [8]: 1 fold
30 | B30 |  |  |  |  |  |  |  |  |  | IC50 (IonWorks Quattro) [7]: 40 nM; IC50 (IonWorks Quattro) [8]: 70 nM; IC50 (IonWorks Quattro) [9]: 3100 nM; IC50 (IonWorks Quattro) [10]: 4 nM
31 | B31 |  |  |  |  |  |  |  |  |  | IC50 (IonWorks Quattro) [7]: 70 nM; IC50 (IonWorks Quattro) [8]: 90 nM; IC50 (IonWorks Quattro) [9]: 2300 nM; IC50 (IonWorks Quattro) [10]: 8 nM
